Record: PubChem BioAssay AID624099 (ICCB-Longwood, 2012)
This is an unselected part of about 21,000 reagents. Of all reagents, 497 (2.4%) are marked active. 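Higher z means weaker E2 silencing; only reporter increases were scored, and knock-downs that hurt cell survival may mask genuine repressor factors.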 No sequences are given here.

Purpose: 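Host factors E2 relies on to silence an HPV18 LCR reporter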 (primary screen)
System: human C33A cervical carcinoma cells (HPV-negative) stably expressing BPV1 E2 and an HPV18 LCR luciferase reporter
Knock-down reagent: siRNA pool against human genes, 40 nM
Time to read-out: 72 h
Detection: 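HPV18 LCR reporter light per well, converted to plate-wise z-scores that exclude control wells, and averaged over triplicate plates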
Direction: mean z-score and z-score: higher = stronger reporter signal, weaker E2 silencing
Rule for the call: 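Hit if mean z-score reaches 2 and two or more of three replicate z-scores also reach 2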

Target gene	mean z-score	z-score, replicate A	z-score, replicate B	z-score, replicate C	activity call
SPINT1 (serine peptidase inhibitor, Kunitz type 1)	0.46	0.51	0.59	0.27	inactive
STARD7 (StAR related lipid transfer domain containing 7)	0.55	0.25	0.58	0.82	inactive
C16orf89 (chromosome 16 open reading frame 89)	-0.35	0.13	-0.95	-0.24	inactive
GPN3 (GPN-loop GTPase 3)	0.12	-0.38	0.37	0.37	inactive
TRO (trophinin)	0.19	0	0.09	0.49	inactive
RNFT2 (ring finger protein, transmembrane 2)	-1.08	-1.28	-1.11	-0.86	inactive
PAPOLA (poly(A) polymerase alpha)	-0.26	-0.37	-0.11	-0.29	inactive
AREG (amphiregulin)	0.39	0.16	0.7	0.31	inactive
RASIP1 (Ras interacting protein 1)	-0.27	0.04	-0.36	-0.48	inactive
CDC50A (cell division cycle 50 P4-ATPase accessory subunit A)	-0.79	-0.62	-1.02	-0.73	inactive
ICA1 (islet cell autoantigen 1)	-0.38	-0.27	-0.53	-0.32	inactive
DAD1 (defender against cell death 1)	-1.61	-1.68	-1.45	-1.7	inactive
C19orf18 (chromosome 19 open reading frame 18)	-1.59	-2.24	-1.14	-1.4	inactive
LOC150580 (retired record)	0.37	1.06	0.36	-0.29	inactive
LOC389983 (retired record)	-0.74	-0.91	-0.48	-0.83	inactive
PGK1 (phosphoglycerate kinase 1)	-0.3	-0.62	0.38	-0.66	inactive
WEE1 (WEE1 G2 checkpoint kinase)	-0.83	-0.93	-0.94	-0.62	inactive
EBAG9 (estrogen receptor binding site associated antigen 9)	1.79	2.2	1.68	1.5	inactive
LOC440305 (retired record)	0.31	0.15	0.29	0.51	inactive
GUCY1A2 (guanylate cyclase 1 soluble subunit alpha 2)	1.85	1.34	1.89	2.31	inactive
TCEAL5 (transcription elongation factor A like 5)	0.55	0.44	0.52	0.69	inactive
TTLL8 (tubulin tyrosine ligase like 8)	0.75	0.66	1.03	0.54	inactive
MAOA (monoamine oxidase A)	-1.34	-1.3	-1.58	-1.14	inactive
